Source: US20080254010A1, “Controlling Clostridium difficile-Associated Disease in the Gastrointestinal Tract” (priority 2007, published 2008)

Test system: Clostridium difficile(ATCC 9689) spores
Conditions: 17 hours after treatment; 15 μg/mL L-alanine (D-alanine at equal concentration where combined); water-agar

For C[C@H](N)C(=O)O [L-alanine], the spores germinated was “approximately 79%”.
